Data published in patent US20220356230A1.
Several values for one entry are separate records, joined by “and”; a condition that tells them apart may be missing. Equal entries are not always repeated. Where two headings read alike, the source gives them in different places.

What was measured:
Settings in all cases: remark: other sources report otherwise
[1] = target: T1, Bt-SARS-CoV-2 Spike Protein (RBD)([…]).hFc (SARS-CoV-2)
[2] = target: T2, Bt-SARS-CoV-2 Spike Protein (RBD)([…]).mFc (SARS-CoV-2)
[3] = target: T1, Bt-SARS-CoV-2 Spike Protein …; assay: Luminex bead assay, antibody supernatant, biotinylated antigen on microspheres
[4] = target: T2, Bt-SARS-CoV-2 Spike Protein …; assay: as above
[5] = target: SARS-CoV-2 Spike Protein (RBD)([…]).mmH (SARS-CoV-2)
[6] = target: T3, SARS-COV-2-S RBD extracellular domain expressed with a C-terminal myc-myc-hexahistidine (SARS-COV-2 RBD-MMH) (SARS-CoV-2)
[7] = target: SARS-CoV-2 Spike Protein (RBD)([…]).mmH (SARS-CoV-2); assay: Luminex bead assay, supernatant on antigen microspheres
[8] = target: T3, SARS-COV-2-S RBD extracellular domain …; remark: listed apart in the source
[9] = target: SARS-CoV-2 Spike Protein (RBD)([…]).mmH (SARS-CoV-2); assay: Luminex bead assay, supernatant on antigen microspheres; remark: listed apart in the source

B1: mAb10986 (antibody)
heavy: EVQLVESGGGLVQPGGSLRLSCAASEFTVSSNYMSWVRQAPGKGLEWVSVIYSGGSTFYADSVKGRFTISRDNSKNTLYLQMNSLRAEDTAVYYCARALPYGDLHFDYWGQGTLVTVSSASTKGPSVFPLAPSSKSTSGGTAALGCLVKDYFPEPVTVSWNSGALTSGVHTFPAVLQSSGLYSLSSVVTVPSSSLGTQTYICNVNHKPSNTKVDKKV[human IgG1 Fc left out here]
light: QSVLTQPPSVSGAPGQRVTISCTGSSSNIGTGYDVHWYQQLPGTAPKLLIYGNTNRPSGVPDRFSGSKSGTSASLAITGLQAEDEADYYCQSYDSSLSDSYVFGTGTKVTVLGQPKAAPSVTLFPPSSEELQANKATLVCLISDFYPGAVTVAWKADSSPVKAGVETTTPSKQSNNKYAASSYLSLTPEQWKSHRSYSCQVTHEGSTVEKTVAPTECS
Binding signal (MFI) [1]: 23400 MFI
Binding signal (MFI) [2]: 15900 MFI

B2: mAb10932 (antibody)
heavy: EVQLVESGGGLVQSGGSLRLSCAASGLTVSSNYMSWVRQAPGKGLEWVSVIYSGGSTFYSDSVKGRFTISRHNSKNTLYLQMNSLRAEDTAVYYCARARGDAFDIWGQGTMVTVSSASTKGPSVFPLAPSSKSTSGGTAALGCLVKDYFPEPVTVSWNSGALTSGVHTFPAVLQSSGLYSLSSVVTVPSSSLGTQTYICNVNHKPSNTKVDKKV[human IgG1 Fc left out here]
light: DIQMTQSPSSLSASVGDRVTITCQASQGISNYLNWYQQKPGKAPKLLISDASNLETGVPSRFSGSGSGTDFTFTISSLQPEDIATYYCQQYDNLRFFTFGPGTKVDIKRTVAAPSVFIFPPSDEQLKSGTASVVCLLNNFYPREAKVQWKVDNALQSGNSQESVTEQDSKDSTYSLSSTLTLSKADYEKHKVYACEVTHQGLSSPVTKSFNRGEC
Binding signal (MFI) [3]: 26200 MFI
Binding signal (MFI) [4]: 17700 MFI
Binding signal (MFI) [5]: 30000 MFI and 30100 MFI

B3: mAb10967 (antibody)
heavy: EVQLVESGGGLVQPGGSLRLSCAASGFTVSSNYMSWVRQAPGKGLEWVSVIYPGGSTFYADSVKGRFTISRDNSKNTLYLQMNSLRAEDTAVYYCARDQRDFAWGQGTLVTVSSASTKGPSVFPLAPSSKSTSGGTAALGCLVKDYFPEPVTVSWNSGALTSGVHTFPAVLQSSGLYSLSSVVTVPSSSLGTQTYICNVNHKPSNTKVDKKV[human IgG1 Fc left out here]
light: DIQMTQSPSSLSASVGDRVTITCQASQDISNYLNWYQQKPGKAPKLLIYDASNLETGVPSRFSGSGSGTDFTFTISGLQPEDIATYYCQQYDNLPPTFGQGTRLEIKRTVAAPSVFIFPPSDEQLKSGTASVVCLLNNFYPREAKVQWKVDNALQSGNSQESVTEQDSKDSTYSLSSTLTLSKADYEKHKVYACEVTHQGLSSPVTKSFNRGEC
Binding signal (MFI) [1]: 24300 MFI
Binding signal (MFI) [2]: 16800 MFI
t½ [6]: 38.8 min and 28.5 min
Binding signal (MFI) [7]: 26500 MFI
t½ [8]: 38.8 min and 33.5 min
Binding signal (MFI) [9]: 28500 MFI

B4: mAb10956 (antibody)
heavy: EVQLVESGGGLVQPGGSLRLSCAASGLTVSSNYMSWVRQAPGKGLEWVSVIYSGGSTFYADSVKGRFTISRDNSKNTLYLQMNSLRAEDTAVYYCARDLIKYGMDVWGQGTTVTVSSASTKGPSVFPLAPSSKSTSGGTAALGCLVKDYFPEPVTVSWNSGALTSGVHTFPAVLQSSGLYSLSSVVTVPSSSLGTQTYICNVNHKPSNTKVDKKV[human IgG1 Fc left out here]
light: DIQMTQSPSSLSASVGDRVTITCQASQDISNYLNWYQQKPGKAPKLLIYDASNLETGVPSRFSGSGSGTDFTFTISSLQPEDIATYYCQQYDNLPPHFGPGTKVDIKRTVAAPSVFIFPPSDEQLKSGTASVVCLLNNFYPREAKVQWKVDNALQSGNSQESVTEQDSKDSTYSLSSTLTLSKADYEKHKVYACEVTHQGLSSPVTKSFNRGEC
Binding signal (MFI) [1]: 24500 MFI
Binding signal (MFI) [2]: 12900 MFI
t½ [6]: 0.5 min
Binding signal (MFI) [7]: 25700 MFI
t½ [8]: 0.8 min
Binding signal (MFI) [9]: 27900 MFI

B5: mAb10937 (antibody)
heavy: QITLKESGPTLVKPTQTLTLTCTFSGFSLSTNVVGVGWIRQPPGKALEWLALIYWNDDKRYSPSLKSRLTITKDTSKNQVVLTMTNMDPVDTATYYCAHGPTGDYFDYWGQGTLVTVSSASTKGPSVFPLAPSSKSTSGGTAALGCLVKDYFPEPVTVSWNSGALTSGVHTFPAVLQSSGLYSLSSVVTVPSSSLGTQTYICNVNHKPSNTKVDKKV[human IgG1 Fc left out here]
light: [about 100 residues left out here][about 120 residues left out here]
Binding signal (MFI) [3]: 31500 MFI
Binding signal (MFI) [4]: 19700 MFI
t½ [6]: 0.6 min and 0.7 min

B6: mAb10957 (antibody)
heavy: EVQLVESGGGLVQPGGSLRLSCAASGVTVSSNYMSWVRQAPGKGLEWVSVIYSGGSTFYADSVKGRFTISRDNSKNTLFLQMNSLRIEDTAVYYCARDLGPYGMDVWGQGTTVTVSSASTKGPSVFPLAPSSKSTSGGTAALGCLVKDYFPEPVTVSWNSGALTSGVHTFPAVLQSSGLYSLSSVVTVPSSSLGTQTYICNVNHKPSNTKVDKKV[human IgG1 Fc left out here]
light: DIQLTQSPSFLSASVGDRVTITCRASQGISSYLAWYQQKPGKAPKLLIYAASTLQSGVPSRFSGSGSGTQFILTISSLQPEDFATYYCQQLNSYPGFTFGPGTKVDIKRTVAAPSVFIFPPSDEQLKSGTASVVCLLNNFYPREAKVQWKVDNALQSGNSQESVTEQDSKDSTYSLSSTLTLSKADYEKHKVYACEVTHQGLSSPVTKSFNRGEC
Binding signal (MFI) [1]: 16700 MFI
Binding signal (MFI) [2]: 10600 MFI
t½ [6]: 19.9 min and 14.6 min
Binding signal (MFI) [7]: 20600 MFI
t½ [8]: 19.9 min and 15.1 min
Binding signal (MFI) [9]: 23400 MFI

B7: mAb10914 (antibody)
heavy: EVQLVESGGGLVQPGGSLRLSCAASGLIVSRNYMIWVRQAPGKGLEWVSVIYSGGSTFYADSVKGRFTISRHNSKNTLYLQMNSLRAEDTAVYYCARDLGTGGMDVWGQGTTVTVSSASTKGPSVFPLAPSSKSTSGGTAALGCLVKDYFPEPVTVSWNSGALTSGVHTFPAVLQSSGLYSLSSVVTVPSSSLGTQTYICNVNHKPSNTKVDKKV[human IgG1 Fc left out here]
light: DIQLTQSPSFLSASVGDRVTITCWASQGISSYLAWYQQKPGKAPKLLIYAASTLQSGVPSRFSGSGSGTEFTLTISSLQPEDFATYYCQQLNSYPLTFGGGTKVEIKRTVAAPSVFIFPPSDEQLKSGTASVVCLLNNFYPREAKVQWKVDNALQSGNSQESVTEQDSKDSTYSLSSTLTLSKADYEKHKVYACEVTHQGLSSPVTKSFNRGEC
Binding signal (MFI) [3]: 26000 MFI
Binding signal (MFI) [4]: 16000 MFI
Binding signal (MFI) [5]: 32000 MFI and 29600 MFI

B8: mAb10913 (antibody)
heavy: EVQLVESGGGLVQPGGSLRLSCAASGFTFRNYEMNWVRQAPGKGLEWVSYITSSGSTMYYADSVKGRFTISRDNAKNSLYLQMNSLRAEDTAVYYCARDGFYYYYAMDVWGQGTTVTVSSASTKGPSVFPLAPSSKSTSGGTAALGCLVKDYFPEPVTVSWNSGALTSGVHTFPAVLQSSGLYSLSSVVTVPSSSLGTQTYICNVNHKPSNTKVDKKV[human IgG1 Fc left out here]
light: QSVLTQPPSVSAAPGQKVTISCSGSSSNIGNNYVSWYQQLPGTAPKLLIYDNNKRPSGIPDRFSGSKSGTSATLGITGLQTGDEADYYCGTWDSSLSVGRVFGTGTKVTVLGQPKAAPSVTLFPPSSEELQANKATLVCLISDFYPGAVTVAWKADSSPVKAGVETTTPSKQSNNKYAASSYLSLTPEQWKSHRSYSCQVTHEGSTVEKTVAPTECS
Binding signal (MFI) [3]: 27500 MFI
Binding signal (MFI) [4]: 16600 MFI
Binding signal (MFI) [5]: 30700 MFI and 29200 MFI
t½ [6]: 0.3 min
